According to patent US20230355708A1, “COMPOSITIONS FOR INHIBITING VIRAL ENTRY AND METHODS USING SAME” (DREXEL UNIVERSITY, published 2023):

Assays:
[1] = biological target: SARS-CoV-2 spike S2 subunit (SARS-CoV-2, UniProt P0DTC2 686-1213)
[2] = biological target: SARS-CoV-2 spike S1 subunit (SARS-CoV-2, UniProt P0DTC2 16-685)

B1: P51G-CVN (other)
chain: LGKFSQTCYNSAIQGSVLTSTCERTNGGYNTSSIDLNSVIENVDGSLKWQGSNFIETCRNTQLAGSSELAAECKTRAQQFVSTKINLDDHIANIDGTLKYE
[1]
  binding result: binds
[2]
  binding result: binds
